Here are results for 10 molecules from patent US20220033460A1, “IDENTIFICATION AND USE OF T CELL EPITOPES IN DESIGNING DIAGNOSTIC AND THERAPEUTIC APPROACHES FOR COVID-19” (priority 2020, published 2022).

The subject of this experiment is CD8+ T cells. The format is cell-based, human. To be noted: cells of the TCR clonotype specific for the epitope / HLA class I of the same line.

B1: TCR_30: TCR to … / B*07:02 (protein)
TCR alpha: SQQPVQSPQAVILREGEDAVINCSSSKALYSVHWYRQKHGEAPVFLMILLKGGEQKGHEKISASFNEKKQQSSLYLTASQLSYSGTYFCGTAFFNAGGTSYGKLTFGQGTILTVHPNIQNPDPAVYQLRDSKSSDKSVCLFTDFDSQTNVSQSKDSDVYITDKTVLDMRSMDFKSNSAVAWSNKSDFACANAFNNSIIPEDTFFPSPESSCDVKLVEKSFETDTNLNFQNLSVIGFRILLLKVAGFNLLMTLRLWSS
TCR beta: NAGVTQTPKFRILKIGQSMTLQCTQDMNHNYMYWYRQDPGMGLKLIYYSVGAGITDKGEVPNGYNVSRSTTEDFPLRLELAAPSQTSVYFCASSPGASYNEQFFGPGTRLTVLEDLKNVFPPKVAVFEPSEAEISHTQKATLVCLATGFYPDHVELSWWVNGKEVHSGVSTDPQPLKEQPALNDSRYCLSSRLRVSATFWQNPRNHFRCQVQFYGLSENDEWTQDRAKPVTQIVSAEAWGRADCGFTSESYQQGVLSATILYEILLGKATLYAVLVSALVLMAMVKRKDSRG
As to B1, the “No. of Cells” value stood at 4.

B2: TCR_37: TCR to … / A*02:01 (protein)
TCR alpha: AQKITQTQPGMFVQEKEAVTLDCTYDTSDPSYGLFWYKQPSSGEMIFLIYQGSYDQQNATEGRYSLNFQKARKSANLVISASQLGDSAMYFCAMRGAINTGTASKLTFGTGTRLQVTLDIQNPDPAVYQLRDSKSSDKSVCLFTDFDSQTNVSQSKDSDVYITDKTVLDMRSMDFKSNSAVAWSNKSDFACANAFNNSIIPEDTFFPSPESSCDVKLVEKSFETDTNLNFQNLSVIGFRILLLKVAGFNLLMTLRLWSS
TCR beta: DAGITQSPRHKVTETGTPVTLRCHQTENHRYMYWYRQDPGHGLRLIHYSYGVKDTDKGEVSDGYSVSRSKTEDFLLTLESATSSQTSVYFCAISESWTSGIGREETQYFGPGTRLLVLEDLKNVFPPKVAVFEPSEAEISHTQKATLVCLATGFYPDHVELSWWVNGKEVHSGVSTDPQPLKEQPALNDSRYCLSSRLRVSATFWQNPRNHFRCQVQFYGLSENDEWTQDRAKPVTQIVSAEAWGRADCGFTSESYQQGVLSATILYEILLGKATLYAVLVSALVLMAMVKRKDSRG
Consider B2, for which the “No. of Cells” value is 3.

B3: TCR_40: TCR to … / A*24:02 (protein)
TCR alpha: SQQPVQSPQAVILREGEDAVINCSSSKALYSVHWYRQKHGEAPIFLMILLKGGEQKGHDKISASFNEKKQQSSLYLTASQLSYSGTYFCGTESPGNNDMRFGAGTRLTVKPNIQNPDPAVYQLRDSKSSDKSVCLFTDFDSQTNVSQSKDSDVYITDKTVLDMRSMDFKSNSAVAWSNKSDFACANAFNNSIIPEDTFFPSPESSCDVKLVEKSFETDTNLNFQNLSVIGFRILLLKVAGFNLLMTLRLWSS
TCR beta: MGPGLLCWVLLCLLGAGSVETGVTQSPTHLIKTRGQQVTLRCSSQSGHNTVSWYQQALGQGPQFIFQYYREEENGRGNFPPRFSGLQFPNYSSELNVNALELDDSALYLCASSSSALEDPEQYFGPGTRLTVTEDLKNVFPPKVAVFEPSEAEISHTQKATLVCLATGFYPDHVELSWWVNGKEVHSGVSTDPQPLKEQPALNDSRYCLSSRLRVSATFWQNPRNHFRCQVQFYGLSENDEWTQDRAKPVTQIVSAEAWGRADCGFTSESYQQGVLSATILYEILLGKATLYAVLVSALVLMAMVKRKDSRG
In the case of B3, the “No. of Cells” value is 3.

B4: TCR_28: TCR to … / A*02:01 (protein)
TCR alpha: AQSVSQHNHHVILSEAASLELGCNYSYGGTVNLFWYVQYPGQHLQLLLKYFSGDPLVKGIKGFEAEFIKSKFSFNLRKPSVQWSDTAEYFCAWILSGNTPLVFGKGTRLSVIANIQNPDPAVYQLRDSKSSDKSVCLFTDFDSQTNVSQSKDSDVYITDKTVLDMRSMDFKSNSAVAWSNKSDFACANAFNNSIIPEDTFFPSPESSCDVKLVEKSFETDTNLNFQNLSVIGFRILLLKVAGFNLLMTLRLWSS
TCR beta: EAGVAQSPRYKIIEKRQSVAFWCNPISGHATLYWYQQILGQGPKLLIQFQNNGVVDDSQLPKDRFSAERLKGVDSTLKIQPAKLEDSAVYLCASSLGTGGTEAFFGQGTRLTVVEDLNKVFPPEVAVFEPSEAEISHTQKATLVCLATGFFPDHVELSWWVNGKEVHSGVSTDPQPLKEQPALNDSRYCLSSRLRVSATFWQNPRNHFRCQVQFYGLSENDEWTQDRAKPVTQIVSAEAWGRADCGFTSVSYQQGVLSATILYEILLGKATLYAVLVSALVLMAMVKRKDF
Regarding B4, the “No. of Cells” value is given as 5.

B5: TCR_32: TCR to … / A*02:01 (protein)
TCR alpha: QTVTQSQPEMSVQEAETVTLSCTYDTSESDYYLFWYKQPPSRQMILVIRQEAYKQQNATENRFSVNFQKAAKSFSLKISDSQLGDAAMYFCAYMDNNDMRFGAGTRLTVKPNIQNPDPAVYQLRDSKSSDKSVCLFTDFDSQTNVSQSKDSDVYITDKTVLDMRSMDFKSNSAVAWSNKSDFACANAFNNSIIPEDTFFPSPESSCDVKLVEKSFETDTNLNFQNLSVIGFRILLLKVAGFNLLMTLRLWSS
TCR beta: DSGVTQTPKHLITATGQRVTLRCSPRSGDLSVYWYQQSLDQGLQFLIQYYNGEERAKGNILERFSAQQFPDLHSELNLSSLELGDSALYFCASSDGQGGYGYTFGSGTRLTVVEDLNKVFPPEVAVFEPSEAEISHTQKATLVCLATGFFPDHVELSWWVNGKEVHSGVSTDPQPLKEQPALNDSRYCLSSRLRVSATFWQNPRNHFRCQVQFYGLSENDEWTQDRAKPVTQIVSAEAWGRADCGFTSVSYQQGVLSATILYEILLGKATLYAVLVSALVLMAMVKRKDF
With B5, the “No. of Cells” value was 4.

B6: TCR_29: TCR to … / B*07:02 (protein)
TCR alpha: RKEVEQDPGPFNVPEGATVAFNCTYSNSASQSFFWYRQDCRKEPKLLMSVYSSGNEDGRFTAQLNRASQYISLLIRDSKLSDSATYLCVVNDPNSGNTPLVFGKGTRLSVIANIQNPDPAVYQLRDSKSSDKSVCLFTDFDSQTNVSQSKDSDVYITDKTVLDMRSMDFKSNSAVAWSNKSDFACANAFNNSIIPEDTFFPSPESSCDVKLVEKSFETDTNLNFQNLSVIGFRILLLKVAGFNLLMTLRLWSS
TCR beta: GAVVSQHPSRVICKSGTSVKIECRSLDFQATTMFWYRQFPKQSLMLMATSNEGSKATYEQGVEKDKFLINHASLTLSTLTVTSAHPEDSSFYICSARDQASQNTGELFFGEGSRLTVLEDLKNVFPPKVAVFEPSEAEISHTQKATLVCLATGFYPDHVELSWWVNGKEVHSGVSTDPQPLKEQPALNDSRYCLSSRLRVSATFWQNPRNHFRCQVQFYGLSENDEWTQDRAKPVTQIVSAEAWGRADCGFTSESYQQGVLSATILYEILLGKATLYAVLVSALVLMAMVKRKDSRG
For the molecule B6, the “No. of Cells” value worked out at 4.

B7: TCR_25: TCR to … / A*01:01 (protein)
TCR alpha: RKEVEQDPGPFNVPEGATVAFNCTYSNSASQSFFWYRQDCRKEPKLLMSVYSSGNEDGRFTAQLNRASQYISLLIRDSKLSDSATYLCVVNKEDRLMFGDGTQLVVKPNIQNPDPAVYQLRDSKSSDKSVCLFTDFDSQTNVSQSKDSDVYITDKTVLDMRSMDFKSNSAVAWSNKSDFACANAFNNSIIPEDTFFPSPESSCDVKLVEKSFETDTNLNFQNLSVIGFRILLLKVAGFNLLMTLRLWSS
TCR beta: SAVISQKPSRDICQRGTSLTIQCQVDSQVTMMFWYRQQPGQSLTLIATANQGSEATYESGFVIDKFPISRPNLTFSTLTVSNMSPEDSSIYLCSVDRDRNTGELFFGEGSRLTVLEDLKNVFPPKVAVFEPSEAEISHTQKATLVCLATGFYPDHVELSWWVNGKEVHSGVSTDPQPLKEQPALNDSRYCLSSRLRVSATFWQNPRNHFRCQVQFYGLSENDEWTQDRAKPVTQIVSAEAWGRADCGFTSESYQQGVLSATILYEILLGKATLYAVLVSALVLMAMVKRKDSRG
On to B7, for which the “No. of Cells” value came out at 5.

B8: TCR_33: TCR to … / A*02:01 (protein)
TCR alpha: AQRVTQPEKLLSVFKGAPVELKCNYSYSGSPELFWYVQYSRQRLQLLLRHISRESIKGFTADLNKGETSFHLKKPFAQEEDSAMYYCALGALTGQNFVFGPGTRLSVLPYIQNPDPAVYQLRDSKSSDKSVCLFTDFDSQTNVSQSKDSDVYITDKTVLDMRSMDFKSNSAVAWSNKSDFACANAFNNSIIPEDTFFPSPESSCDVKLVEKSFETDTNLNFQNLSVIGFRILLLKVAGFNLLMTLRLWSS
TCR beta: EADIYQTPRYLVIGTGKKITLECSQTMGHDKMYWYQQDPGMELHLIHYSYGVNSTEKGDLSSESTVSRIRTEHFPLTLESARPSHTSQYLCASSRLESLGNTIYFGEGSWLTVVEDLNKVFPPEVAVFEPSEAEISHTQKATLVCLATGFFPDHVELSWWVNGKEVHSGVSTDPQPLKEQPALNDSRYCLSSRLRVSATFWQNPRNHFRCQVQFYGLSENDEWTQDRAKPVTQIVSAEAWGRADCGFTSVSYQQGVLSATILYEILLGKATLYAVLVSALVLMAMVKRKDF
B8: the “No. of Cells” value came out at 4.

B9: TCR_31: TCR to … / A*24:02 (protein)
TCR alpha: ILNVEQSPQSLHVQEGDSTNFTCSFPSSNFYALHWYRWETAKSPEALFVMTLNGDEKKKGRISATLNTKEGYSYLYIKGSQPEDSATYLCALGNTGGFKTIFGAGTRLFVKANIQNPDPAVYQLRDSKSSDKSVCLFTDFDSQTNVSQSKDSDVYITDKTVLDMRSMDFKSNSAVAWSNKSDFACANAFNNSIIPEDTFFPSPESSCDVKLVEKSFETDTNLNFQNLSVIGFRILLLKVAGFNLLMTLRLWSS
TCR beta: DSGVTQTPKHLITATGQRVTLRCSPRSGDLSVYWYQQSLDQGLQFLIQYYNGEERAKGNILERFSAQQFPDLHSELNLSSLELGDSALYFCASSVEVQARSDTQYFGPGTRLTVLEDLKNVFPPKVAVFEPSEAEISHTQKATLVCLATGFYPDHVELSWWVNGKEVHSGVSTDPQPLKEQPALNDSRYCLSSRLRVSATFWQNPRNHFRCQVQFYGLSENDEWTQDRAKPVTQIVSAEAWGRADCGFTSESYQQGVLSATILYEILLGKATLYAVLVSALVLMAMVKRKDSRG
In the case of B9, the “No. of Cells” value stood at 4.

B10: TCR_39: TCR to … / A*02:01 (protein)
TCR alpha: QLLEQSPQFLSIQEGENLTVYCNSSSVFSSLQWYRQEPGEGPVLLVTVVTGGEVKKLKRLTFQFGDARKDSSLHITAAQPGDTGLYLCAGARSGNTGKLIFGQGTTLQVKPDIQNPDPAVYQLRDSKSSDKSVCLFTDFDSQTNVSQSKDSDVYITDKTVLDMRSMDFKSNSAVAWSNKSDFACANAFNNSIIPEDTFFPSPESSCDVKLVEKSFETDTNLNFQNLSVIGFRILLLKVAGFNLLMTLRLWSS
TCR beta: GAGVSQSPRYKVTKRGQDVALRCDPISGHVSLYWYRQALGQGPEFLTYFNYEAQQDKSGLPNDRFSAERPEGSISTLTIQRTEQRDSAMYRCASSLGPGQGYNEQFFGPGTRLTVLEDLKNVFPPKVAVFEPSEAEISHTQKATLVCLATGFYPDHVELSWWVNGKEVHSGVSTDPQPLKEQPALNDSRYCLSSRLRVSATFWQNPRNHFRCQVQFYGLSENDEWTQDRAKPVTQIVSAEAWGRADCGFTSESYQQGVLSATILYEILLGKATLYAVLVSALVLMAMVKRKDSRG
Take B10: the “No. of Cells” value turned out to be 3.
